Compound potency records, mixed from different reports. Data source: NIAID ChemDB in PubChem.

Shared fields: enzyme or target tests; organism: HIV-1; protein: Reverse transcriptase

Two numbers with a dash give a range or band. Neighbouring rows are from separate reports. Fold resistance has wild type as its base. ICn: concentration for n% inhibition. An empty or dashed field is not shown. Percent inhibition refers to the dose given; in toxicity tests it is the harm to the cells.

{"smiles": "O=C(CSc1nnnn1-c1ccc(C2CC2)cc1Cl)Nc1ccc(C#CC(O)(C(F)(F)F)C(F)(F)F)cc1Cl", "endpoint": "IC50", "changes": "RT-K103 Y181C", "read by": "PicoGreen / fluorescence", "result": "<1 µM"}
{"smiles": "Cc1c(Cc2ccccc2)nc(NCCCCN)[nH]c1=O", "endpoint": "Ki", "result": "97 µM"}
{"smiles": "COc1cc2c(cc1OC)CN(c1nn3c(C)nnc3c3ccccc13)CC2", "endpoint": "IC90", "strain": "IIIB", "read by": "RT activity / fluorescence", "result": "0.94 µM"}
{"smiles": "CN1CCN(CC#Cc2ccc(NC(=O)CSc3nnnn3-c3ccc(C(C)(C)C)cc3Cl)c(Cl)c2)CC1", "endpoint": "IC50", "changes": "RT-K103 Y181C", "read by": "PicoGreen / fluorescence", "result": "<1 µM"}
{"smiles": "CCN1c2ncc(CCOc3ccc(-c4cc(C(=O)O)ccc4OC)cc3C)cc2C(=O)N(C)c2cccnc21", "endpoint": "IC50", "strain": "IIIB", "read by": "nucleotide incorporation / radiometric", "result": "<0.05 µM"}
{"smiles": "C=Cc1cc(N(CC)CC)nc(S(C)(=O)=O)n1", "endpoint": "Ki", "changes": "RT-K103N", "read by": "nucleotide incorporation / radiometric", "result": ">400 µM"}
{"smiles": "CCCN1C(=O)c2ccnnc2Oc2ccc(C)cc21", "endpoint": "inhibition", "tested at": "33 µM", "read by": "ELISA", "result": "26%"}
{"smiles": "CCN1c2ncc(CCOc3ccc(-c4cscn4)cc3)cc2C(=O)N(C)c2cccnc21", "endpoint": "IC50", "strain": "IIIB", "changes": "RT-K103N Y181C", "read by": "nucleotide incorporation / radiometric", "result": ">0.1 µM"}
{"smiles": "COC(=O)/C=C(/C)c1ccc(NC(=O)CSc2nnnn2-c2ccc(C3CC3)cc2Cl)c(Cl)c1", "endpoint": "IC50", "strain": "WT", "read by": "PicoGreen / fluorescence", "result": "<1 µM"}
{"smiles": "Cc1cc(C)cc(S(=O)(=O)c2c(C(=O)NCCOc3ccccc3)[nH]c3ccc(Cl)c(F)c23)c1", "endpoint": "Ki", "changes": "WT", "read by": "RT activity / nucleotide incorporation", "result": "0.003 µM"}
{"smiles": "O=C(CSc1nnnn1-c1ccc(C2CC2)cc1Cl)Nc1ccc(C(=O)NCc2cc[n+]([O-])cc2)cc1Cl", "endpoint": "IC50", "strain": "WT", "read by": "PicoGreen / fluorescence", "result": "<1 µM"}
{"smiles": "CCN1c2ncc(CCOc3ccc(-c4nccn4C)cc3C)cc2C(=O)N(C)c2cccnc21", "endpoint": "IC50", "strain": "IIIB", "changes": "RT-K103N Y181C", "read by": "nucleotide incorporation / radiometric", "result": "0.05–0.1 µM"}
{"smiles": "Cc1ccc(-n2nnnc2SCC(=O)Nc2ccc(-c3ccc(OCC(=O)O)cc3)cc2Cl)c(Cl)c1", "endpoint": "IC50", "changes": "RT-K103 Y181C", "read by": "PicoGreen / fluorescence", "result": "<1 µM"}
{"smiles": "NCCCCNc1nc(Cc2ccccc2)cc(=O)[nH]1", "endpoint": "Ki", "changes": "RT-K103N", "result": ">1000 µM"}
{"smiles": "O=C1NC(c2c[nH]c3ccccc23)=C/C1=C1\\C(=O)NC2C=CC=CC12", "endpoint": "inhibition", "tested at": "750 µM", "read by": "RT activity / ELISA", "result": "14.37%"}
{"smiles": "Cc1cc(C)cc(S(=O)(=O)c2c(C(=O)NCC(N)=O)[nH]c3ccc(Cl)c(F)c23)c1", "endpoint": "Ki", "changes": "K103N", "read by": "RT activity / nucleotide incorporation", "result": "1.42 µM"}
{"smiles": "Cc1ccc(-n2nnnc2SCC(=O)Nc2ccc(-c3coc(C)n3)cc2Cl)c(Cl)c1", "endpoint": "IC50", "strain": "WT", "read by": "PicoGreen / fluorescence", "result": "<1 µM"}
{"smiles": "C=Cc1cc(N(C)C)nc(S(C)(=O)=O)n1", "endpoint": "Ki", "changes": "RT-L100I", "read by": "nucleotide incorporation / radiometric", "result": "0.012 µM"}
{"smiles": "CCN1c2ncc(CCOc3ccc(-c4ccc(C(=O)O)cc4)c(C)c3)cc2C(=O)N(C)c2cccnc21", "endpoint": "IC50", "strain": "IIIB", "read by": "nucleotide incorporation / radiometric", "result": "<0.05 µM"}
{"smiles": "COc1ccc2c(c1)N(C(C)C)C(=O)c1ccnnc1O2", "endpoint": "inhibition", "tested at": "330 µM", "read by": "ELISA", "result": "74%"}
{"smiles": "Cc1c(Cc2ccccc2)nc(SCCCCO)[nH]c1=O", "endpoint": "fold resistance", "changes": "RT-V106A", "result": "1.37"}
{"smiles": "CC(C)(C#Cc1ccc(NC(=O)CSc2nnnn2-c2ccc(C3CC3)cc2Cl)c(Cl)c1)NC(=O)Cn1cncn1", "endpoint": "IC50", "strain": "WT", "read by": "PicoGreen / fluorescence", "result": "<1 µM"}
{"smiles": "Cc1nnc2c3ccccc3c(N3CCc4ccccc4C3)nn12", "endpoint": "IC50", "strain": "IIIB", "read by": "RT activity / fluorescence", "result": "0.14 µM"}
{"smiles": "CC(C)(C)c1ccc(-n2nnnc2SCC(=O)Nc2ccc(OCC(=O)NCc3ccc(C(=O)O)cc3)cc2Cl)c(Cl)c1", "endpoint": "IC50", "strain": "WT", "read by": "PicoGreen / fluorescence", "result": "<1 µM"}
{"smiles": "CCN1c2ncc(CCOc3ccc(/C=C(\\C)C(=O)O)c4ccccc34)cc2C(=O)Nc2c(C)ccnc21", "endpoint": "fold resistance", "changes": "RT-V106A", "read by": "nucleotide incorporation / radiometric", "result": "1–10"}
{"smiles": "CCN1C(=O)c2ccnnc2Oc2c(C)cc(C)cc21", "endpoint": "inhibition", "tested at": "330 µM", "read by": "ELISA", "result": "88%"}
{"smiles": "CC(C)(C)c1ccc(-n2nnnc2SCC(=O)Nc2ccc(C#CC3CC3)cc2Cl)c(Cl)c1", "endpoint": "IC50", "strain": "WT", "read by": "PicoGreen / fluorescence", "result": "<1 µM"}
{"smiles": "Cc1nnc2c3ccccc3c(N3CCc4ccc(C(=O)O)cc4C3)nn12", "endpoint": "IC90", "strain": "IIIB", "read by": "RT activity / fluorescence", "result": "94.5 µM"}
{"smiles": "CCc1cc(NCc2nc3c(C)ccc(C)c3o2)c(=O)[nH]c1C", "endpoint": "fold resistance", "changes": "RT-K103N", "read by": "nucleotide incorporation", "result": "17.7"}
{"smiles": "C#CC(O)/C=C/C/C=C/C=C/C=C/CC#CC(O)C#CC/C=C/C=C/C=C/CC(O)C#C", "endpoint": "IC95", "read by": "radiometric", "result": "4 µM"}
{"smiles": "CC(C)(C#Cc1ccc(NC(=O)CSc2nnnn2-c2cc(C(F)(F)F)cc(C3CC3)c2Cl)c(Cl)c1F)NC(=O)c1ccc[n+]([O-])c1", "endpoint": "IC50", "changes": "RT-K103 Y181C", "read by": "PicoGreen / fluorescence", "result": "<1 µM"}
{"smiles": "COc1cccc(-c2nnc3c4ccccc4c(N4CCc5ccccc5C4)nn23)c1", "endpoint": "IC90", "strain": "IIIB", "read by": "RT activity / fluorescence", "result": ">100 µM"}
{"smiles": "CCN1c2ncc(CCOc3ccc(C(=O)O)c4c3CCN(S(C)(=O)=O)C4)cc2C(=O)N(C)c2cccnc21", "endpoint": "fold resistance", "changes": "RT-K103N Y181C", "read by": "nucleotide incorporation / radiometric", "result": "1"}
{"smiles": "O=C(CSc1nnnn1-c1ccc(C2CC2)cc1Cl)Nc1ccc(C#CC2(CO)CC2)cc1Cl", "endpoint": "IC50", "changes": "RT-K103 Y181C", "read by": "PicoGreen / fluorescence", "result": "<1 µM"}
{"smiles": "CCN1c2ncc(CCOc3ccc(-c4ccc(C)cc4)cc3C)cc2C(=O)N(C)c2cccnc21", "endpoint": "IC50", "strain": "IIIB", "read by": "nucleotide incorporation / radiometric", "result": "<0.05 µM"}
{"smiles": "CC(C)(C(=O)O)c1ccc(-c2ccc(NC(=O)CSc3nnnn3-c3ccc(C4CC4)cc3Cl)c(Cl)c2)cc1", "endpoint": "IC50", "changes": "RT-K103 Y181C", "read by": "PicoGreen / fluorescence", "result": "<1 µM"}
{"smiles": "CCN1c2ncc(CCOc3ccc(C(=O)Nc4cccc(CC(=O)O)c4)cc3C)cc2C(=O)N(C)c2cccnc21", "endpoint": "IC50", "strain": "IIIB", "changes": "RT-K103N Y181C", "read by": "nucleotide incorporation / radiometric", "result": "<0.05 µM"}
{"smiles": "CCN1c2ncc(CCOc3ccc(C(=O)O)c4ccccc34)cc2C(=O)N(C)c2ccc(C)nc21", "endpoint": "fold resistance", "changes": "RT-V106A", "read by": "nucleotide incorporation / radiometric", "result": ">10"}
{"smiles": "CCOC(=O)c1ccc(NC(=O)Nc2ccc(NC(=O)CSc3nnnn3-c3ccc(C(C)(C)C)cc3Cl)c(Cl)c2)cc1", "endpoint": "IC50", "changes": "RT-K103 Y181C", "read by": "PicoGreen / fluorescence", "result": "<1 µM"}
{"smiles": "CCN1c2ncc(CCOc3ccc(C(=O)O)c4c3CCC4)cc2C(=O)N(C)c2cccnc21", "endpoint": "fold resistance", "changes": "RT-Y188L", "read by": "nucleotide incorporation / radiometric", "result": ">10"}
{"smiles": "CC(C)(C)c1ccc(-n2nnnc2SCC(=O)Nc2ccc(C#CCN3CCCCC3)cc2Cl)c(Cl)c1", "endpoint": "IC50", "strain": "WT", "read by": "PicoGreen / fluorescence", "result": "<1 µM"}
{"smiles": "CCN1c2ncc(CCOc3ccc(CC(=O)O)c4ccccc34)cc2C(=O)Nc2c(C)ccnc21", "endpoint": "fold resistance", "changes": "RT-V106A", "read by": "nucleotide incorporation / radiometric", "result": ">10"}
{"smiles": "CC(C)(C#Cc1ccc(NC(=O)CSc2nnnn2-c2ccccc2Cl)c(Cl)c1)C(=O)O", "endpoint": "IC50", "strain": "WT", "read by": "PicoGreen / fluorescence", "result": "<1 µM"}
{"smiles": "FC(F)c1nnc2c3ccccc3c(N3CCc4ccccc4C3)nn12", "endpoint": "IC90", "strain": "KER2008", "read by": "RT activity / fluorescence", "result": "0.88 µM"}
{"smiles": "CC(C)=CCN1Cc2cccc3[nH]c(=S)n(c23)C[C@@H]1C", "endpoint": "fold resistance", "changes": "RT-Y181C", "read by": "nucleotide incorporation", "result": "11.3"}
{"smiles": "Cc1nnc2c3ccccc3c(N3CCc4cc(O)c(O)cc4C3)nn12", "endpoint": "IC90", "strain": "98US_MSC5016", "read by": "RT activity / fluorescence", "result": "2.83 µM"}
{"smiles": "CC(C)(C)c1ccc(-n2nnnc2SCC(=O)Nc2ccc(NC(=O)CCC(=O)O)cc2Cl)c(Cl)c1", "endpoint": "IC50", "strain": "WT", "read by": "PicoGreen / fluorescence", "result": "<1 µM"}
{"smiles": "COc1cc2c(cc1[N+](=O)[O-])CN(c1nn3c(C4CC4)nnc3c3ccccc13)CC2", "endpoint": "IC90", "strain": "KER2008", "read by": "RT activity / fluorescence", "result": "74.9 µM"}
{"smiles": "CCCCN1C(=O)c2ccnnc2Oc2ccc(OC)cc21", "endpoint": "inhibition", "tested at": "330 µM", "read by": "ELISA", "result": "30%"}
{"smiles": "CC(C)=CCC/C(C)=C/CC/C(C)=C/CC/C(C)=C/CC/C(C)=C/CC/C(C)=C/Cc1cc(O)ccc1O", "endpoint": "IC90", "read by": "nucleotide incorporation", "result": "5.4 µM"}
{"smiles": "C[C@H](CC(=O)O)C(=O)NC(C)(C)C#Cc1ccc(NC(=O)CSc2nnnn2-c2ccc(C3CC3)cc2Cl)c(Cl)c1", "endpoint": "IC50", "changes": "RT-K103 Y181C", "read by": "PicoGreen / fluorescence", "result": "<1 µM"}
{"smiles": "CCN1c2ncc(CCOc3ccc(/C=C(\\C)C(=O)O)c4ccccc34)cc2C(=O)Nc2c(C)cc(Cl)nc21", "endpoint": "fold resistance", "changes": "RT-Y188L", "read by": "nucleotide incorporation / radiometric", "result": ">10"}

6 of the rows above, restated:

smiles | endpoint | strain | changes | tested at | read by | result
CN1CCN(CC#Cc2ccc(NC(=O)CSc3nnnn3-c3ccc(C(C)(C)C)cc3Cl)c(Cl)c2)CC1 | IC50 |  | RT-K103 Y181C |  | PicoGreen / fluorescence | <1 µM
C[C@H](CC(=O)O)C(=O)NC(C)(C)C#Cc1ccc(NC(=O)CSc2nnnn2-c2ccc(C3CC3)cc2Cl)c(Cl)c1 | IC50 |  | RT-K103 Y181C |  | PicoGreen / fluorescence | <1 µM
Cc1c(Cc2ccccc2)nc(SCCCCO)[nH]c1=O | fold resistance |  | RT-V106A |  |  | 1.37
O=C(CSc1nnnn1-c1ccc(C2CC2)cc1Cl)Nc1ccc(C(=O)NCc2cc[n+]([O-])cc2)cc1Cl | IC50 | WT |  |  | PicoGreen / fluorescence | <1 µM
C=Cc1cc(N(C)C)nc(S(C)(=O)=O)n1 | Ki |  | RT-L100I |  | nucleotide incorporation / radiometric | 0.012 µM
CC(C)(C#Cc1ccc(NC(=O)CSc2nnnn2-c2ccccc2Cl)c(Cl)c1)C(=O)O | IC50 | WT |  |  | PicoGreen / fluorescence | <1 µM